Results of unrelated studies side by side (data: NIAID ChemDB).

Common to all: whole-cell or culture tests; organism: HIV-1; method: p24; read-out: EC50

Blank or dashed fields: not listed here. ECn: concentration that inhibits the pathogen or its effect by n%. Lines come from different laboratories, so protocols vary.

SMILES	mutations	cells	strain	result
Nc1ccn([C@H]2CC[C@@H](CO)O2)c(=O)n1	-	H9	IIIB	0.0318 µM
COc1ccc(S(=O)(=O)N(CC(C)C)C[C@@H](O)[C@H](Cc2ccccc2)NC(=O)O[C@H]2CO[C@H]3OCC[C@H]32)cc1	PR-L10R N37D M46I I62V L63P A71V G73S V77I V82T L90M I93L	PBMC	Clinical isolate	0.001 µM
COC(=O)[C@H](C)NP(=O)(OC[C@@H]1C=C[C@H](n2cc(C)c(=O)[nH]c2=O)O1)Oc1ccc(Br)cc1	RT-T69K K70G V75I F77L F116Y Q151M M184V	PBMC	1617-1 NRTI resistant recombinant	0.0199 µM
CC(C)OC(=O)OCOP(=O)(CO[C@H](C)Cn1cnc2c(N)ncnc21)OCOC(=O)OC(C)C	RT-T69D	MT-2	JF4A ddC-resistant (RT T69D)	0.004 µM
Cc1cn([C@H]2C[C@H](N=[N+]=[N-])[C@@H](CO)O2)c(=O)[nH]c1=O	-	PBMC	9281 CLADE A CLADE A	0.025 µM
Oc1ccc(/C=C/c2cc(O)cc(O)c2)cc1	-	PBMC	ddI-resistant (RT K65R/L74V/M184V)	>5 µM
c1cc(CN2CCCNCCNCCCNCC2)ccc1CN1CCCNCCNCCCNCC1	-	PBMC	IIIB X4 laboratory isolate	0.016 µM
c1cc(CN2CCCNCCNCCCNCC2)ccc1CN1CCCNCCNCCCNCC1	-	PBMC	SW26 CLADE C R5	>0.5 µM
CCCc1nnc(C[C@H](C[C@H](O)CN2CCN(C(C)(C)c3ncc(-c4ccc(Cl)cc4)o3)C[C@H]2C(=O)NCC(F)(F)F)C(=O)N[C@H]2c3ccccc3OC[C@H]2O)o1	-	MT-4	NL4-3 WT	<0.008 µM
Cc1cn([C@H]2C[C@H](N=[N+]=[N-])[C@@H](CO)O2)c(=O)[nH]c1=O	RT-V75I F77L F116Y Q151M	PBMC	Recombinant	0.2 µM
Cc1cccc(-n2ccc(CN3CCN(C[C@@H](O)C[C@@H](Cc4cccnc4)C(=O)N[C@H]4c5ccccc5OC[C@H]4O)[C@H](C(=O)NCC(F)(F)F)C3)c2)c1	PR-L10I M46I I54V Q58E L63P I64V V77I V82F I84V L90M I93L	MT-4	K-60C Clinical isolate	<0.031 µM
CCc1cc(NCc2nc3c(Cl)ccc(Cl)c3o2)c(=O)[nH]c1C	RT-K70R	PBMC	Clinical isolate (RT K70R)	<0.4 µM
O=C(N[C@H]1c2ccccc2OC[C@H]1O)[C@H](Cc1nnco1)C[C@H](O)CN1CCN(Cc2ccc(-c3ccc(Cl)cc3)o2)C[C@H]1C(=O)NCC(F)(F)F	PR-L10I M36I N37D M46I R57K L63P A71V G73S I84V L90M I93L	MT-4	V-18 Clinical isolate	<0.125 µM
CC(C)(C)NC(=O)[C@@H]1C[C@@H]2CCCC[C@@H]2CN1C[C@@H](O)[C@H](Cc1ccccc1)NC(=O)[C@H](CC(N)=O)NC(=O)c1ccc2ccccc2n1	PR-I84V	MT-4	NL4-3	<0.09 µM
CC(C)=CCN1Cc2cc(Cl)cc3[nH]c(=S)n(c23)C[C@@H]1C	RT-M184V	CEM	IIIB	0.011 µg/mL
CC(C)CN(C[C@@H](O)[C@H](Cc1ccccc1)NC(=O)O[C@H]1CCOC1)S(=O)(=O)c1ccc(N)cc1	PR-L10I I15V E35D N37E K45R I54V L63P A71V V82T L90M I93L C95F	PBMC	Clinical isolate	0.26 µM
S=C(NCCc1cccs1)Nc1ccc(Br)cn1	RT-M41L F116S T215Y	PBMC	X267-5 Clinical isolate NRTI-resistant	0.045 µM
Cc1ccnc2c1NC(=O)c1cccnc1N2C1CC1	RT-E89G	PBMC	RT-M184V	0.2 µM
O=c1[nH]cnc2c1ncn2[C@H]1CC[C@@H](CO)O1	RT-D67N K70R T215F K219Q	CEM	RTMC (RT D67N K70R T215F K219Q)	2.9 µg/mL
Nc1ncnc2c1ncn2[C@@H]1O[C@H](CO)C[C@@H]1F	RT-T215Y	MT-2	T215Y(RT-T215Y)	5 µM
Cc1ccc(-n2ccc(CN3CCN(C[C@@H](O)C[C@@H](Cc4cccnc4)C(=O)N[C@H]4c5ccccc5OC[C@H]4O)[C@H](C(=O)NCC(F)(F)F)C3)c2)cc1	PR-L10I M46I I54V Q58E L63P I64V V77I V82F I84V L90M I93L	MT-4	K-60C Clinical isolate	<0.015 µM
CC(C)(C)OC(=O)N[C@@H](Cc1ccccc1)[C@H](O)CNC[C@@H](O)[C@H](Cc1ccc(OCC(=O)N2CCOCC2)cc1)NC(=O)OC(C)(C)C	PR-A71T	MT-2	NL4-3	0.04 µM
O=C(N[C@H]1c2ccccc2OC[C@H]1O)[C@H](Cc1cccnc1)C[C@H](O)CN1CCN(Cc2ccn(-c3ccccc3F)c2)C[C@H]1C(=O)NCC(F)(F)F	PR-L10I N37S R41K M46I I54V I62V L63P A71V V77I V82A L90M I93L	MT-4	Q-60C Clinical isolate	<0.031 µM
Cc1cn([C@H]2C[C@H](N=[N+]=[N-])[C@@H](CO)O2)c(=O)[nH]c1=O	PR-A71T V82A	MT-2	NL4-3	0.002 µM
CCCc1nnc(C[C@H](C[C@H](O)CN2CCN(Cc3ccc(-c4ccc(Cl)cc4)o3)C[C@H]2C(=O)NCC(F)(F)F)C(=O)N[C@H]2c3ccccc3OC[C@H]2O)o1	PR-L10I N37S R41K M46I I54V I62V L63P A71V V77I V82A L90M I93L	MT-4	Q-60 Clinical isolate	<0.016 µM
Cc1cn([C@H]2C[C@H](N=[N+]=[N-])[C@@H](CO)O2)c(=O)[nH]c1=O	-	MT-2	HXB2D	0.016 µM
COc1ccc2c(c1)N(C(=O)OC(C)C)[C@@H](CSC)C(=S)N2	RT-Y181C	CEM	IIIB	0.002 µg/mL
Cc1cn([C@H]2C[C@H](N=[N+]=[N-])[C@@H](CO)O2)c(=O)[nH]c1=O	RT-E89G	PBMC	RT-M184V	0.001 µM
Nc1ncnc2c1ncn2CCOCP(=O)(O)O	RT-F77L F116Y Q151M	MT-2	RT F77L/F116Y/Q151M	1.9 µM
CC(C)(c1ncc(-c2ccc(F)cc2)o1)N1CCN(C[C@@H](O)C[C@@H](Cc2nnco2)C(=O)N[C@H]2c3ccccc3OC[C@H]2O)[C@H](C(=O)NCC(F)(F)F)C1	PR-L10I M46I I54V Q58E L63P I64V V77I V82F I84V L90M I93L	MT-4	K-60 Clinical isolate	<0.125 µM
COCCOCCC(CCOCCOC)c1cc(O)c(C(c2cccc(NS(=O)(=O)c3cn(C)cn3)c2)C2CC2)c(=O)o1	-	MT-4	IIIB	>>3 µM
Cc1ccc(NC(=O)Nc2ccc(-c3ccc(NC(=O)Nc4ccc(-c5ccc(NC(=O)Nc6ccc(-c7ccc(NC(=O)Nc8ccc(-c9ccc(NC(=O)Nc%10ccc(-c%11ccc(NC(=O)Nc%12ccc(-c%13ccc(NC(=O)Nc%14ccc(C)cc%14)cc%13S(=O)(=O)O)c(S(=O)(=O)O)c%12)cc%11S(=O)(=O)O)c(S(=O)(=O)O)c%10)cc9S(=O)(=O)O)c(S(=O)(=O)O)c8)cc7S(=O)(=O)O)c(S(=O)(=O)O)c6)cc5S(=O)(=O)O)c(S(=O)(=O)O)c4)cc3S(=O)(=O)O)c(S(=O)(=O)O)c2)cc1	-	MT-4	RF	0.41 µM
CCCc1nnc(C[C@H](C[C@H](O)CN2CCN(C(C)(C)c3ncc(-c4cncc(OC)c4)o3)C[C@H]2C(=O)NCC(F)(F)F)C(=O)N[C@H]2c3ccccc3OC[C@H]2O)o1	PR-L10I M46I I54V Q58E L63P I64V V77I V82F I84V L90M I93L	MT-4	K-60 Clinical isolate	<0.5 µM
CCc1cc(NCc2nc3c(Cl)ccc(Cl)c3o2)c(=O)[nH]c1C	RT-V108I	MT-4	NL4-3	0.4 µM
CCC(Cc1ccccc1)c1cc(O)c(C(c2cccc(NS(=O)(=O)c3cccc4cccnc34)c2)C2CC2)c(=O)o1	-	MT-4	IIIB	2.3 µM
CC1(C)CC[C@]2(C(=O)O)CC[C@]3(C)C(=CC[C@@H]4[C@@]5(C)CC[C@H](O)C(C)(C)[C@@H]5CC[C@]43C)[C@@H]2C1	-	PBMC/HIV-1 + PBMC	Primary clinical isolate Rome	24.6 µM
C/C(=C(/CCO)SSCC1CCCO1)N(C=O)Cc1cnc(C)nc1N	-	MOLT-4/HIV-1(IIIB) + MOLT-4	IIIB	>50 µM
CC(C)(C)NC(=O)[C@@H]1C[C@@H]2CCCC[C@@H]2CN1C[C@@H](O)[C@H](Cc1ccccc1)NC(=O)[C@H](CC(N)=O)NC(=O)c1ccc2ccccc2n1	PR-L10I K20R M36I/V P63L/S L90M	PBMC	BR60 (PR L10I K20R M36I/V P63L/S L90M)	0.004 µM
O=c1[nH]cnc2c1ncn2[C@H]1CC[C@@H](CO)O1	RT-F77L	PBMC	Recombinant	0.2 µM
CC(Sc1nnnn1-c1cccc2ccccc12)C(=O)Nc1ccccc1[N+](=O)[O-]	-	MT-4	-	<10 µM
CCC(CCOCCOC)c1cc(O)c(C(c2cccc(NS(=O)(=O)c3cn(C)cn3)c2)C2CC2)c(=O)o1	-	MT-4	IIIB	5.8 µM
O=C1N(Cc2ccc(CO)cc2)[C@H](Cc2ccccc2)[C@H](O)[C@@H](O)[C@@H](Cc2ccccc2)N1Cc1ccc(CO)cc1	-	PBMC	Clinical isolate C	0.11 µM
CC(C)c1nc(CN(C)C(=O)N[C@H](C(=O)N[C@@H](Cc2ccccc2)C[C@H](O)[C@H](Cc2ccccc2)NC(=O)OCc2cncs2)C(C)C)cs1	-	PBMC	LAI Laboratory isolate	0.04 µM
Cc1cc(C)c(-n2nnnc2SCC(=O)Nc2ccccc2OC(F)F)c(C)c1	-	MT-4	-	<10 µM
CCO/N=C(\c1ccc(Br)cc1)C1CCN(C2(C)CCN(C(=O)c3c(C)cc[n+]([O-])c3C)CC2)CC1	PR-D30N RT-M184V	PBMC	R5-19 (PR D30N RT M184V) R5 clinical isolate	0.0309 µM
CCO/N=C(\c1ccc(Br)cc1)C1CCN(C2(C)CCN(C(=O)c3c(C)cc[n+]([O-])c3C)CC2)CC1	-	PBMC	302072 R5 CLADE B	0.0019 µM
COc1ncccc1NC(=O)CSc1nnnn1-c1c(C)cc(C)cc1C	-	MT-4	-	<10 µM
Cc1cn([C@H]2C[C@H](N=[N+]=[N-])[C@@H](CO)O2)c(=O)[nH]c1=O	RT-M41L E44D D67N T69D Y118I M184V L210W T215Y	PBMC	4755-5 NRTI resistant recombinant	0.165 µM
Cc1cn([C@@H]2O[C@H](CO[Si](C)(C)C(C)(C)C)C3(OS(=O)(=O)C=C3N)[C@H]2O[Si](C)(C)C(C)(C)C)c(=O)n(C)c1=O	RT-M184V	CEM	IIIB	0.019 µg/mL
CCC(CC1CCOCC1)c1cc(O)c(C(c2cccc(NS(=O)(=O)c3cn(C)cn3)c2)C2CC2)c(=O)o1	-	MT-4	IIIB	4.2 µM
Cc1nnc(C[C@H](C[C@H](O)CN2CCN(Cc3ccc(-c4ccc(Cl)cc4)o3)C[C@H]2C(=O)NCC(F)(F)F)C(=O)N[C@H]2c3ccccc3OC[C@H]2O)o1	PR-L10I M36I N37D M46I R57K L63P A71V G73S I84V L90M I93L	MT-4	V-18 Clinical isolate	<0.063 µM
O=c1[nH]cnc2c1ncn2[C@H]1CC[C@@H](CO)O1	-	MT-2	HXB2	1.5 µM
O=c1[nH]cnc2c1ncn2[C@H]1CC[C@@H](CO)O1	-	MT-2	NL4-3	0.24 µM
Cc1cn([C@H]2C[C@H](N=[N+]=[N-])[C@@H](CO)O2)c(=O)[nH]c1=O	-	-	CC11 Clinical isolates	0.001 µM
Cc1ccccc1CNC(=O)[C@H]1N(C[C@@H](O)C[C@@H](Cc2ccccc2)C(=O)N[C@H]2c3ccccc3OC[C@H]2O)CSC1(C)C	PR-V18C	MT-4	-	<1 µM
COc1ccc(CN[C@@H](C(=O)N[C@H]2c3ccccc3C[C@H]2O)[C@H](O)[C@H](Cc2ccccc2)NC(=O)[C@@H](NC(=O)OCc2ccccc2)C(C)(C)C)cc1	-	Primary monocytes + Monocyte	BaL	0.031 µM
CC(C)(C)NC(=O)[C@@H]1CN(Cc2cccnc2)CCN1C[C@@H](O)C[C@@H](Cc1ccccc1)C(=O)N[C@H]1c2ccccc2C[C@H]1O	PR-L10I I15V K20R M36I M46L I54V K55R I62V L63P K70Q V82A L89M	PBMC	Clinical isolate	0.49 µM
Cc1cn([C@H]2C[C@H](N=[N+]=[N-])[C@@H](CO)O2)c(=O)[nH]c1=O	RT-M184V	MT-4	126 BCH-189 (RT-M184V)	0.06 µM
O=C(N[C@H]1c2ccccc2OC[C@H]1O)[C@H](Cc1cccnc1)C[C@H](O)CN1CCN(Cc2ccn(-c3ccccc3C(F)(F)F)c2)C[C@H]1C(=O)NCC(F)(F)F	PR-L10I M46I I54V Q58E L63P I64V V77I V82F I84V L90M I93L	MT-4	K-60C Clinical isolate	<0.5 µM
CC(=O)N1CCC(C(=O)N(CCCN2CCC(Cc3ccc(C(N)=O)cc3)CC2)c2ccc(C)c(Cl)c2)CC1	-	PBMC	SW X4 clinical isolate	>10 µM
O=C(N[C@H]1c2ccccc2OC[C@H]1O)[C@H](Cc1nnc(-c2ccccc2)o1)C[C@H](O)CN1CCN(Cc2ccc(-c3ccc(Cl)cc3)o2)C[C@H]1C(=O)NCC(F)(F)F	PR-L10I M46I I54V Q58E L63P I64V V77I V82F I84V L90M I93L	MT-4	K-60 Clinical isolate	<0.008 µM
O=c1[nH]cnc2c1ncn2[C@H]1CC[C@@H](CO)O1	RT-A62V V75I F77L Q151M	PBMC	ddI-resistant (RT K65R/L74V/M184V)	>10 µM
Cc1ccc(-n2nnnc2SCC(=O)Nc2ccc(C)c([N+](=O)[O-])c2)cc1	-	MT-4	-	<10 µM